In patent publication US10093713B2 (priority 2013, dated 2018):

Assay: general procedure: Fmoc solid-phase peptide synthesis; TentaGel S Ram S resin
Conditions: whole synthesis

H-Y-Aib-EGTFTSDYSIYLDK-K([17-carboxy-heptadecanoyl]-isoGlu-Peg3-Peg3)-AQRAFVEWLLAQGPSSGAPPPS-NH2
final HPLC purity (HPLC and MS): 91%
crude purity (method not given) (analytical HPLC and MS): 45%
